Anti-infective test results gathered from many reports (values: NIAID ChemDB through PubChem).

All rows: tests in culture; organism: HIV-1; cells: MT-4; endpoint: EC50

An empty or dashed field is not shown.

SMILES	strain or isolate	changes	read by	conditions	result
CCOP(=O)(OCC)C(N[C@@H](Cc1ccccc1)[C@@H](O)CN(CC(C)C)S(=O)(=O)c1ccc(OC)cc1)c1ccc([N+](=O)[O-])cc1	ROD	-	MTT	-	>3.94 µg/mL
Cc1cc(C#CCCO)cc(C)c1Oc1ccnc(Nc2ccc(C#N)cc2)n1	IIIB	Y188L	MTT	-	0.219 µM
CCOC(=O)CNc1nc(NC(=O)Nc2cccc(Cl)c2)nc(Oc2cc(=O)oc3ccccc23)n1	IIIB	-	MTT	-	>125 µg/mL
O=[N+]([O-])c1ccc(-c2csc(N/N=C/c3ccccc3O)n2)cc1	IIIB	-	MTT	-	>125 µM
CCc1c(Cc2cc(C)cc(C)c2)n(COCc2ccc(C#CCO)cc2)c(=O)[nH]c1=O	IIIB	WT	MTT	-	0.006 µM
Cc1cc(C)cc(S(=O)(=O)c2c(C(=O)NS(=O)(=O)C(F)(F)F)[nH]c3ccc(Cl)cc23)c1	RES056	-	MTT	-	>253 µM
Clc1ccc(-c2csc(N/N=C/c3ccncc3)n2)cc1	IIIB	-	MTT	-	>125 µM
CCc1c(Cc2cc(C)cc(C)c2)n(COCc2cn(-c3cccnc3)nn2)c(=O)[nH]c1=O	IIIB	WT	MTT	-	0.008 µM
O=S(=O)(O)OCC1OC2OC3C(COS(=O)(=O)O)OC(OC4C(COS(=O)(=O)O)OC(OC5C(COS(=O)(=O)O)OC(OC6C(COS(=O)(=O)O)OC(OC7C(COS(=O)(=O)O)OC(OC8C(COS(=O)(=O)O)OC(OC9C(COS(=O)(=O)O)OC(OC1C(OS(=O)(=O)O)C2OS(=O)(=O)O)C(OS(=O)(=O)O)C9OS(=O)(=O)O)C(OS(=O)(=O)O)C8OS(=O)(=O)O)C(OS(=O)(=O)O)C7OS(=O)(=O)O)C(OS(=O)(=O)O)C6OS(=O)(=O)O)C(OS(=O)(=O)O)C5OS(=O)(=O)O)C(OS(=O)(=O)O)C4OS(=O)(=O)O)C(OS(=O)(=O)O)C3OS(=O)(=O)O	IIIB	-	cytopathic effect / MTT	-	0.2 µg/mL
Nc1ccn([C@H]2CC[C@@H](CO)O2)c(=O)n1	Clinical isolate	-	MTT	-	3.88 µg/mL
CC1(C)c2nc(C(=O)NCc3ccc(F)cc3)c(O)c(=O)n2CCN1Cc1nn[nH]n1	-	-	p24	-	<1 µM
CCCS(=O)(=O)NC(=O)c1[nH]c2ccc(Cl)cc2c1S(=O)(=O)c1cc(C)cc(C)c1	RES056	-	MTT	-	>141 µM
N#Cc1ccc(-c2csc(N/N=C/c3ccncc3)n2)cc1	IIIB	-	MTT	-	>53.1 µM
COc1ccc(CCNc2nc(NC(=S)Nc3cccc(Cl)c3)nc(Oc3cc(=O)oc4ccccc34)n2)cc1OC	IIIB	-	MTT	-	>16.78 µg/mL
CC1(C)CCn2cc(C(=O)NCc3ccc(F)cc3F)c(=O)c(O)c2C1=O	NL4-3	-	GFP	0% human serum	0.0055 µM
Cc1cn([C@H]2C=C[C@@H](CO)O2)c(=O)[nH]c1=O	NL-XM WT	-	p24	-	<0.3 µM
O=C(NCc1ccc(F)cc1)c1nc2n(c(=O)c1O)C(=O)N(Cc1ccccc1)CC2	-	-	p24	-	<50 µM
COCC[C@@]1(C)C(=O)c2c(O)c(=O)c(C(=O)NCc3ccc(F)cc3F)cn2C[C@@H]1OC	NL4-3	-	GFP	100% human serum	0.11 µM
Cc1nc(CN2CCn3c(nc(C(=O)NCc4ccc(F)cc4)c(O)c3=O)C2(C)C)no1	-	-	p24	-	<1 µM
C/C(=N\Nc1nc(-c2ccc(Br)cc2)cs1)c1ccc2c(c1)OCO2	IIIB	-	MTT	-	>41.93 µM
COc1ccc(CCNc2nc(NC(=O)Nc3cccc(Cl)c3)nc(Oc3cc(=O)oc4ccccc34)n2)cc1OC	IIIB	-	MTT	-	>25.23 µg/mL
CCOP(=O)(OCC)C(N[C@@H](Cc1ccccc1)[C@H](O)CN(CC(C)C)S(=O)(=O)c1ccc(OC)cc1)c1ccc([N+](=O)[O-])cc1	IIIB	-	MTT	-	>14.24 µg/mL
O=[N+]([O-])c1ccc(-c2csc(N/N=C/c3cccnc3)n2)cc1	IIIB	-	MTT	-	>62.4 µM
Cc1cc(C)cc(S(=O)(=O)c2c(C(=O)NS(=O)(=O)c3ccc(F)cc3F)[nH]c3ccc(Cl)cc23)c1	-	Y188L	MTT	-	>167 µM
CC1(C)NC(=O)Cn2c1nc(C(=O)NCc1ccc(F)cc1)c(O)c2=O	-	-	p24	-	<50 µM
Cc1cc(C)cc(S(=O)(=O)c2c(C(=O)NS(=O)(=O)c3ccc(F)cc3)[nH]c3ccc(Cl)cc23)c1	-	E138K	MTT	-	4.04 µM
CCOC(=O)CNc1nc(NC(=O)Nc2ccccc2C)nc(Oc2cc(=O)oc3ccccc23)n1	IIIB	-	MTT	-	>75.53 µg/mL
CCOP(=O)(OCC)C(N[C@@H](Cc1ccccc1)[C@H](O)CN(CC(C)C)S(=O)(=O)c1ccc(OC)cc1)c1ccccc1	ROD	-	MTT	-	>13.25 µg/mL
C[C@]12CCCCC[C@@]1(O)Cn1cc(C(=O)NCc3cccc(Cl)c3F)c(=O)c(O)c1C2=O	NL4-3	-	GFP	0% human serum	0.0008 µM
CCC[C@@]1(CCc2ccccc2)CC(O)=C([C@H](CC)c2cccc(NS(=O)(=O)c3ccc(C(F)(F)F)cn3)c2)C(=O)O1	T14434	R41T K70E V77I/V	reporter gene	-	175 nM
Cc1cc(C)cc(S(=O)(=O)c2c(C(=O)NCCn3ccc(=O)[nH]c3=O)[nH]c3ccc(Cl)cc23)c1	IIIB	-	MTT	-	0.0096 µM
CCOP(=O)(OCC)C(N[C@@H](Cc1ccccc1)[C@@H](O)CN(CC(C)C)S(=O)(=O)c1ccc(OC)cc1)c1ccc2c(c1)OCO2	IIIB	-	MTT	-	>13.73 µg/mL
CCc1c(Cc2cc(C)cc(C)c2)n(COCC#Cc2ccc(O)cc2)c(=O)[nH]c1=O	IIIB	Y181C	MTT	-	3 µM
Cc1ccnc2c1NC(=O)c1cccnc1N2C1CC1	SF33	-	p24 / ELISA	-	0.068 µM
CCOC(=O)CNc1nc(NC(=O)Nc2ccc(Br)cc2)nc(Oc2cc(=O)oc3ccccc23)n1	IIIB	-	MTT	-	>125 µg/mL
Nc1nc(NC2CC2)c2ncn([C@H]3C=C[C@@H](CO)C3)c2n1	NL4-3 WT	-	p24	-	<2.3 µM
CC1(C)c2nc(C(=O)NCc3ccc(F)cc3)c(O)c(=O)n2CCN1S(C)(=O)=O	-	-	p24	-	<1 µM
Cc1cc(C)cc(S(=O)(=O)c2c(C(=O)NS(=O)(=O)c3ccccc3)[nH]c3ccc(Cl)cc23)c1	-	Y181C	MTT	-	6.71 µM
COc1ccc(CCNc2nc(NC(=O)Nc3ccccc3C)nc(Oc3cc(=O)oc4ccccc34)n2)cc1OC	IIIB	-	MTT	-	>16.9 µg/mL
Clc1ccc(-c2csc(N/N=C/c3ccco3)n2)cc1	IIIB	-	MTT	-	>27.9 µM
CCCCOP(=O)(N[C@@H](Cc1ccccc1)[C@H](O)CN(CC(C)C)S(=O)(=O)c1ccc(OC)cc1)OCCCC	RES056	-	MTT	-	>13.08 µg/mL
CCc1c(Cc2cc(C)cc(C)c2)n(COCC#CC#CCO)c(=O)[nH]c1=O	IIIB	EFV-resistant (K103R V179D P225H)	MTT	-	17 µM
COCCC[C@@]1(C)C(=O)c2c(O)c(=O)c(C(=O)NCc3c(F)cccc3F)cn2C[C@@H]1OC	NL4-3	-	GFP	100% human serum	0.053 µM
N#Cc1ccc(-c2csc(N/N=C/c3ccc([N+](=O)[O-])cc3)n2)cc1	IIIB	-	MTT	-	>10.55 µM

4 of the rows above, restated:

SMILES,strain or isolate,changes,read by,conditions,result
CCCS(=O)(=O)NC(=O)c1[nH]c2ccc(Cl)cc2c1S(=O)(=O)c1cc(C)cc(C)c1,RES056,-,MTT,-,>141 µM
CC1(C)NC(=O)Cn2c1nc(C(=O)NCc1ccc(F)cc1)c(O)c2=O,-,-,p24,-,<50 µM
CCOC(=O)CNc1nc(NC(=O)Nc2cccc(Cl)c2)nc(Oc2cc(=O)oc3ccccc23)n1,IIIB,-,MTT,-,>125 µg/mL
COCCC[C@@]1(C)C(=O)c2c(O)c(=O)c(C(=O)NCc3c(F)cccc3F)cn2C[C@@H]1OC,NL4-3,-,GFP,100% human serum,0.053 µM

Lines come from different laboratories, so protocols vary. ECn is the concentration giving n% inhibition of infection, replication or growth.